{
  "source": "paper PMC5754140",
  "about": "“Two classes of protective antibodies against Pseudorabies virus variant glycoprotein B: Implications for vaccine design” (2017)",
  "key": {"[1]": {"target": "PRV gB ectodomain, soluble (residues A59 to N752, strain HN1201) (Pseudorabies virus (strain HN1201))", "test": "SEC"}, "[2]": {"target": "PRV gB ectodomain, soluble (residues A59 to N752, strain HN1201) (Pseudorabies virus (strain HN1201))", "test": "crystal structure"}},
  "data": [
    {"substance": "PRV gB ectodomain, soluble (residues A59 to N752, strain HN1201) (domain or fragment)", "values": [
      {"measurement": "stoichiometry N", "setting": "[1]", "value": 3},
      {"measurement": "stoichiometry N", "setting": "[2]", "value": 3}
    ]}
  ]
}
